Test results from patent US20260077055A1, “COMPOSITIONS OF POLYPLEXES AND SAPONINS” (SAPREME TECHNOLOGIES B.V., priority 2022, published 2026).

Tested on: EGFR+ A431 cells
Experiment: Cell viability (MTS) after polyplex transfection of A431 cells
Format: cell-based
Conditions: K16C npSaporin polyplex with targeted saponin
Experimental: Spectrophotometry: Concentrations were determined using either a Thermo Nanodrop 2000 spectrometer or Perkin Elmer Lambda 365 Spectrophotometer. DLS measurements: DLS measurements were performed on a Malvern Nano ZS (Malvern Instruments, U.K.), operating at 633 nm with a 173° scattering angle, at 25 or 37° C. DLS mean diameters were obtained from the intensity particle size distribution provided by Malvern Zetasizer Software. DLS histograms were obtained from the intensity particle size distributions. Zeta-potential: The zeta-potential values of the polyplexes were obtained by laser doppler anemometry (LDA), measuring the mean electrophoretic mobility (Malvern Zetasizer Nano ZS, Malvern Instruments, U.K.). Measurements were performed in 10 mM HEPES pH 7.1, 150 mM NaCl. TEM measurements: TEM measurements were performed on a JEOL JEM-1011 operated at 100 kV electron microscope, equipped with a camera S5 MegaView G2. […] Infrared Spectroscopy: FT-IR spectra were recorded on a Bruker Vertex 70v, equipped with a RockSolid interferometer, after preparing the samples (1-2 mg) as KBr pellets. […] NMR Spectroscopy: 1H NMR spectra were recorded on a 11.7 T Bruker DRX-500 spectrometer. […] Experiments were recorded acquiring 64-512 scans, with a pre-scan delay (d1) of 12 s, and an acquisition time (aq) of 4 s at 300 K. 13C NMR spectrum was recorder on a 9.39 T Varian Innova 400 spectrometer. […]

Cetuximab-SO1861: Cetuximab conjugated via cysteines with SO1861-EMCH, 4 SO1861 moieties per antibody (DAR4)
amount of saporin nanoplasmid necessary per treatment: greatly reduced
